Anti-infective test results gathered from many reports (values: NIAID ChemDB through PubChem).

All rows: enzyme or target tests; species: HIV-2; protein: Reverse transcriptase; read-out: IC50

Neighbouring rows are from separate reports. ICn: concentration for n% inhibition.

{"compound": "Cc1occc1C(=S)Nc1ccc(Cl)c(/C=N/OC(C)(C)C)c1", "value": ">100 µM"}
{"compound": "CCOCn1c(Cc2cc(C)cc(C)c2)c(CC)c(=O)[nH]c1=O", "strain": "ROD", "value": ">500 µM"}
{"compound": "C/C=C/CSc1cc(NC(=S)c2ccsc2C)ccc1Cl", "value": ">100 µM"}
{"compound": "CC(C)=CCN1C(=O)c2cccn2-c2ccc(Cl)cc2S1(=O)=O", "method": "RT activity", "value": ">30 µM"}
{"compound": "C=C(Cc1ccc2c(c1)OCO2)C(=C)Cc1ccc(O)cc1O", "value": "156.9 µg/mL"}
{"compound": "CCc1cc(CCc2nc3c(Cl)ccc(Cl)c3o2)c(=S)[nH]c1C", "value": ">300 µM"}
{"compound": "Cc1c(Sc2ccccc2)n(COCCO)c(=O)[nH]c1=O", "method": "nucleotide incorporation", "value": ">10 µM"}
{"compound": "Cc1cn([C@@H]2O[C@H](CO[Si](C)(C)C(C)(C)C)[C@@]3(OS(=O)(=O)C(/C=C/CO)=C3N)[C@H]2O[Si](C)(C)C(C)(C)C)c(=O)[nH]c1=O", "method": "nucleotide incorporation", "value": ">500 µM"}
{"compound": "COC(=O)C(Cc1ccccc1)NC(=O)[C@@H](NC(=O)[C@@H](C[C@H](O)[C@H](CC1CCCCC1)NC(=O)[C@@H](NC(=O)[C@H](Cc1ccccc1)CS(=O)(=O)C(C)(C)C)C(C)C)C(C)C)C(C)C", "method": "nucleotide incorporation", "changes": "RT-S102L", "strain": "EHO", "value": ">1553 µM"}
{"compound": "CNc1ccc(Cl)cc1S(=O)(=O)c1ccccc1[N+](=O)[O-]", "strain": "WT", "value": ">100 µM"}
{"compound": "CC(=O)c1ccc(C)cc1NC(C(N)=O)c1c(Cl)cccc1Cl", "method": "nucleotide incorporation", "changes": "RT-E219D", "strain": "EHO", "value": ">1425 µM"}
{"compound": "Cc1cc(C)cc([C@]23SCCN2C(=O)c2ccccc23)c1", "method": "ELISA", "value": ">200 µM"}
{"compound": "CCN1c2ncccc2N(C)C(=S)c2sc3cccnc3c21", "value": ">350 µM"}
{"compound": "Nc1nc2c(ncn2[C@H]2CC[C@@H](COP(=O)(O)OP(=O)(O)OP(=O)(O)O)O2)c(=O)[nH]1", "method": "nucleotide incorporation", "value": "0.055 µg/mL"}
{"compound": "COc1ccc(OC)c2c(=O)c(O)c[nH]c12", "method": "radiometric", "value": "8.7 µM"}
{"compound": "CC(C)=CCN1Cc2cccc3[nH]c(=O)n(c23)CC1C", "method": "nucleotide incorporation", "value": ">300 µM"}
{"compound": "CCOCn1c(Cc2ccccc2)c(C(C)C)c(=O)[nH]c1=O", "method": "nucleotide incorporation", "changes": "RT-E219D", "strain": "EHO", "value": ">1656 µM"}
{"compound": "CC(=O)O[C@H]1c2c(c3c(c4c(-c5ccccc5)cc(=O)oc24)OC(C)(C)C=C3)O[C@H](C)[C@H]1C", "method": "scintillation proximity / radiometric", "changes": "RT-Y181C", "value": "0.21 µM"}
{"compound": "CC(C)=CCN1Cc2cccc3[nH]c(=S)n(c23)C[C@@H]1C", "method": "nucleotide incorporation", "value": ">140 µM"}

A second listing of 3 rows from above:

{"compound": "CCc1cc(CCc2nc3c(Cl)ccc(Cl)c3o2)c(=S)[nH]c1C", "value": ">300 µM"}
{"compound": "Cc1cn([C@@H]2O[C@H](CO[Si](C)(C)C(C)(C)C)[C@@]3(OS(=O)(=O)C(/C=C/CO)=C3N)[C@H]2O[Si](C)(C)C(C)(C)C)c(=O)[nH]c1=O", "method": "nucleotide incorporation", "value": ">500 µM"}
{"compound": "CCOCn1c(Cc2cc(C)cc(C)c2)c(CC)c(=O)[nH]c1=O", "strain": "ROD", "value": ">500 µM"}